Values quoted from earlier work as cited in paper PMC7915867, “Discovery of a Small Molecule Inhibitor of Human Adenovirus Capable of Preventing Escape from the Endosome” (International Journal of Molecular Sciences, 2021).

Tested on: HAdV5-GFP
Settings: ratio CC50 / IC50; cited from earlier work

Compound	selectivity index (SI)
O=C(Nc1cc(F)cc(C(F)(F)F)c1)c1cc(Cl)ccc1O [Compound 4]	666.7
CC1(Nc2ccc(NC(=O)c3cc(Cl)ccc3O)c(Cl)c2)CCCC1 [Compound 5]	580.7
CC(C)C(NC(=O)c1cc(Cl)ccc1O)C(=O)Nc1ccc([N+](=O)[O-])cc1Cl (stereo not drawn) [Compound 6]	444.4
